Measured values from several laboratories, pooled; numbers as filed in NIAID ChemDB.

All rows: tests in culture; species: Mycobacterium tuberculosis

An empty or dashed field is not shown. MIC50, MIC90 and the like: level of inhibition, or share of isolates inhibited. MIC bound: limit read from a one-dose screen. Percent inhibition refers to the dose given; in toxicity tests it is the harm to the cells. Neighbouring rows are from separate reports. ECn is the concentration giving n% inhibition of infection, replication or growth. "inactive" is the filed call at that dose; no cut-off is given.

structure | read by | changes | strain | tested at | measure | value
O=C1c2ccccc2S(=O)(=O)N1CSC(=S)N1CCN(c2ccccc2)CC1 |  |  | H37Rv | 6.25 µg/mL | inhibition | 0%
CCCc1cnc(C(=O)/C=C/c2ccc(O)cc2)cn1 |  |  | H37Rv |  | EC50 | >12.5 µg/mL
Cc1c(NC(=O)CSc2nnc(-c3ccco3)n2-c2ccc(F)cc2)c(=O)n(-c2ccccc2)n1C | resazurin |  | H37Rv | 6.25 µg/mL | inhibition | inactive
Cc1ccc(NC(=O)C(Cl)(Cl)Cl)cc1Cl | BACTEC |  | H37Rv | 12.5 µg/mL | inhibition | 0%
CCCCn1c(SCC(=O)Nc2c(C)n(C)n(-c3ccccc3)c2=O)nnc1-c1ccco1 | resazurin |  | H37Rv | 6.25 µg/mL | inhibition | inactive
CCCCS(=O)(=O)NC[C@H]1O[C@H](O[C@H]2O[C@H](CNS(=O)(=O)CCC)[C@@H](O)[C@H](O)[C@H]2O)[C@H](O)[C@@H](O)[C@@H]1O |  |  | H37Ra |  | MIC | >128 µg/mL
Cc1c(NC(=O)CSc2nnc(-c3ccco3)n2-c2ccc(Cl)cc2)c(=O)n(-c2ccccc2)n1C | resazurin |  | H37Rv |  | MIC | >6.25 µg/mL
NC(N)=NC[C@H]1O[C@H](O[C@H]2O[C@H](CN=C(N)N)[C@@H](O)[C@H](O)[C@H]2O)[C@H](O)[C@@H](O)[C@@H]1O |  |  | H37Ra |  | MIC | >128 µg/mL
CCCOC(=S)SCN1C(=O)c2ccccc2S1(=O)=O |  |  | H37Rv |  | MIC | 6.25 µg/mL
[N-]=[N+]=NCCN1C(=O)C2(OCCO2)c2ccccc21 |  |  | MC2 6230 |  | MIC99 | >385 µM
C/C=C/Cn1c(=O)c2c(ncn2C)n(C)c1=O | BACTEC |  | H37Rv | 12.5 µg/mL | inhibition | 0%
CO[C@H]1/C=C/O[C@@]2(C)Oc3c(C)c(O)c4c(=O)c(c5oc6cc(N7CCN(CC(C)C)CC7)cc(=O)c6nc5c4c3=C2O)NC(=O)/C(C)=C\C=C\[C@H](C)[C@H](O)[C@@H](C)[C@@H](O)[C@@H](C)[C@H](OC(C)=O)[C@@H]1C |  |  | TN794 |  | MIC | <1 µg/mL
CCCCCCCCCC(=O)N[C@H]1[C@H](Oc2c3cc4cc2Oc2ccc(cc2Cl)[C@@H](O[C@@H]2O[C@H](CO)[C@@H](O)[C@H](O)[C@H]2NC(C)=O)[C@@H]2NC(=O)[C@H](NC(=O)[C@@H]4NC(=O)[C@H]4NC(=O)[C@@H](Cc5ccc(c(Cl)c5)O3)NC(=O)[C@H](N)c3ccc(O)c(c3)Oc3cc(O)cc4c3)c3ccc(O)c(c3)-c3c(O[C@H]4O[C@H](CO)[C@@H](O)[C@H](O)[C@@H]4O)cc(O)cc3[C@H](C(=O)O)NC2=O)O[C@H](CO)[C@@H](O)[C@@H]1O |  |  | L1905 |  | MIC | >64 µg/mL
O=C(NC1CONC1=O)c1cccc(F)c1 |  |  | H37Rv |  | MIC | >50 µg/mL
C(=C\c1ccccc1)/CNc1ccc(CN2CCOCC2)cc1 |  |  | B905 |  | MIC | >64 µg/mL
NC(C(=O)O)C1C=CCC1 | BACTEC |  | H37Rv | 12.5 µg/mL | inhibition | 9%
CN1CCN(Cc2ccccc2NC/C=C/c2ccccc2)CC1 |  |  | B814 |  | MIC | 32 µg/mL
CC1C(=O)Nc2ccc(C(=O)CN3CCN(c4noc5c(Cl)cccc45)CC3)cc21 | visual reading / absorbance |  | H37Rv |  | MIC | 50 µg/mL
CCCCCCNC[C@H]1O[C@H](O[C@H]2O[C@H](CNCCCCCC)[C@@H](O)[C@H](O)[C@H]2O)[C@H](O)[C@@H](O)[C@@H]1O |  |  | H37Ra |  | MIC | 128 µg/mL
Cc1c(NC(=O)CSc2nnc(-c3ccco3)n2-c2ccc(Br)cc2)c(=O)n(-c2ccccc2)n1C | resazurin |  | H37Rv |  | MIC | >6.25 µg/mL
CCCNCC(=O)O[C@]1(CC)C(=O)OCc2c1cc1n(c2=O)Cc2cc3ccccc3nc2-1 | BACTEC |  | H37Rv |  | MIC | ≥12.5 µg/mL
CCCCCCCCCCCCN(CCCCCCCCCCCC)C[C@H]1O[C@H](O[C@H]2O[C@H](CN(CCCCCCCCCCCC)CCCCCCCCCCCC)[C@@H](O)[C@H](O)[C@H]2O)[C@H](O)[C@@H](O)[C@@H]1O |  |  | H37Ra |  | MIC | >128 µg/mL
CCc1cc(C(N)=S)ccn1 |  |  | MC2 6230 |  | MIC99 | 90.36 µM
O=C1Cc2cc(C(=O)CN3CCN(c4ccc([N+](=O)[O-])cc4)CC3)ccc2N1 | visual reading / absorbance |  | H37Rv |  | MIC | 25 µg/mL
NSC(=S)NCc1ccco1 | BACTEC |  | H37Rv | 128 µg/mL | inhibition | 100%
COc1c2ccoc2cc2oc(=O)ccc12 | resazurin |  | H37Ra |  | MIC90 | 200 µg/mL
S=C(S)NCCNC(=S)S | BACTEC |  | H37Rv | 128 µg/mL | inhibition | 100%
O=C1NC(=Nc2ccc(Cl)cc2Cl)N/C1=C\c1ccc(Cl)cc1Cl |  |  | H37Rv |  | MIC | <12.5 µg/mL
O=C1OC(c2ccccc2)=N/C1=C\c1cccnc1 | BACTEC |  | H37Rv |  | MIC bound | >12.5 µg/mL
O=C(NC1CONC1=O)c1ccccc1C(F)(F)F |  |  | 13PI |  | MIC | 25 µg/mL
O=C1NC(=Nc2ccc(Cl)cc2Cl)N/C1=C\c1c(Cl)cccc1Cl |  |  | H37Rv | 12.5 µg/mL | inhibition | 4%
O=C(CNC(=O)c1ccccc1)N/N=C/c1c(O)ccc2ccccc12 | BACTEC |  | H37Rv |  | MIC bound | >12.5 µg/mL
O=C(/C=C/c1ccccc1O)c1cnccn1 |  |  | H37Rv |  | EC50 | <12.5 µg/mL
CCCN=c1cc2n(-c3ccc(Cl)cc3)c3ccccc3nc-2cc1Nc1ccc(Cl)cc1 |  |  | H37Rv |  | MIC | 0.5 µg/mL
N[C@@H]1CN(c2c(F)cc3c(=O)c(C(=O)O)cn([C@@H]4C[C@@H]4F)c3c2Cl)CC12CC2 | resazurin | Pre-XDR (fluoroquinolone-resistant) | Clinical strain |  | MIC90 | 0.5 µg/mL
CC(C)=CCC/C(C)=C/CC/C(C)=C/CC/C(C)=C/CC/C(C)=C/CC/C(C)=C/CC/C(C)=C/CC/C(C)=C/CC[C@H](C)CCOP(=O)(O)C[C@@H]1O[C@H](CO)[C@@H](O)[C@@H]1O |  |  | H37Rv |  | MIC | 50 µM
CC1C(=O)Nc2ccc(C(=O)CN3CCN(c4noc5cc(Cl)ccc45)CC3)cc21 | visual reading / absorbance |  | H37Rv |  | MIC | 12.5 µg/mL
O=C1NC(Nc2cccc(Cl)c2)=N/C1=C\c1c(Cl)cccc1Cl |  |  | H37Rv |  | MIC | >12.5 µg/mL
Cc1nc2c(n1CCO)C(=O)c1nc(C)n(CCO)c1C2=O | BACTEC |  | H37Rv | 12.5 µg/mL | inhibition | 0%
COc1cc(/C=C/C(=O)c2cnc(CC(C)C)cn2)ccc1O |  |  | H37Rv |  | EC50 | <12.5 µg/mL
O=C(NC1CONC1=O)c1ccc(F)cc1 |  |  | H37Rv |  | MIC | 50 µg/mL
COc1c(OCC=C(C)C)c2occc2c2oc(=O)ccc12 | resazurin |  | H37Ra |  | MIC90 | 50 µg/mL
CCN1C(=O)Cc2cc(C(=O)CN3CCN(c4noc5cc(Cl)ccc45)CC3)ccc21 | visual reading / absorbance |  | H37Rv |  | MIC | 3.12 µg/mL
Cc1c(NC(=O)C(C)Sc2nnc(-c3ccco3)n2C2CCCCC2)c(=O)n(-c2ccccc2)n1C | resazurin |  | H37Rv | 6.25 µg/mL | inhibition | 66%
S=C(NCN1CCOCC1)c1cncc(-n2ccnc2)n1 |  |  | SP 607 |  | MIC | 125 µg/mL
[N-]=[N+]=NCCCCCCN1C(=O)C(=O)c2ccccc21 |  |  | MC2 6230 |  | MIC99 | >368 µM
CC1CCCCN1C(=S)SCN1C(=O)c2ccccc2S1(=O)=O |  |  | H37Rv | 6.25 µg/mL | inhibition | 99%
Nc1ccc2nc3ccc(N)cc3[n+](-c3ccccc3)c2c1 | BACTEC |  | H37Rv |  | MIC bound | ≤12.5 µg/mL
CCCCC(CC)CN(CC(CC)CCCC)C[C@H]1O[C@H](O[C@H]2O[C@H](CN(CC(CC)CCCC)CC(CC)CCCC)[C@@H](O)[C@H](O)[C@H]2O)[C@H](O)[C@@H](O)[C@@H]1O |  |  | H37Ra |  | MIC | 128 µg/mL
CCN1C(=O)C(C)c2cc(C(=O)CN3CCN(c4noc5ccccc45)CC3)ccc21 | visual reading / absorbance |  | H37Rv |  | MIC | 1.56 µg/mL
CCCNCC(=O)Nc1ccc(C)c(Cl)c1 | BACTEC |  | H37Rv | 12.5 µg/mL | inhibition | 81%
CC(C)OC(=S)SCN1C(=O)c2ccccc2S1(=O)=O |  |  | H37Rv | 6.25 µg/mL | inhibition | 100%
Cc1ccc2c(c1)C(=O)C(=O)N2CCCCCCN=[N+]=[N-] |  |  | MC2 6230 |  | MIC99 | 174 µM
COC1=CC23CCCN2CCc2cc4c(cc2C3C1O)OCO4 | BACTEC |  | H37Rv | 12.5 µg/mL | inhibition | 5%
CC1CCCCN1c1cncc(/C(N)=N/O)n1 |  |  | H37Rv |  | MIC | 500 µg/mL
Cc1c(C(=O)CC(=O)C(=O)Nc2cc(Cl)ccc2Cl)[n+](=O)c2ccccc2n1[O-] | BACTEC |  | H37Rv |  | MIC bound | >12.5 µg/mL
COc1c(OC)c2occc2c2oc(=O)ccc12 | resazurin |  | H37Ra |  | EC50 | 84.2 µg/mL
Cc1occc1C(=S)Nc1ccc(Cl)c(C(=O)OC2CCCCC2)c1 | BACTEC |  | H37Rv |  | MIC bound | >12.5 µg/mL
CC1CCCCN1c1cncc(C(N)=S)n1 |  |  | Ethionamide-resistant |  | MIC | 62.5 µg/mL
Cc1ccc(NCCNCC(C)(C)O)c2c(=O)c3ccc(Cl)cc3sc12 | BACTEC |  | H37Rv |  | MIC bound | ≤12.5 µg/mL
C(=C\c1ccccc1)/CNc1cccc(Cn2ccnc2)c1 |  |  | B905 |  | MIC | 8 µg/mL
Cc1ccc2c(c1)C(=O)C(=O)N2CCCCN=[N+]=[N-] |  |  | MC2 6230 |  | MIC99 | >388 µM
C(=C\c1ccccc1)/CNc1ccc(Cn2ccnc2)cc1 |  |  | B814 |  | MIC | 4 µg/mL
CC1(C)[C@@H](O)CC[C@]2(C)[C@H]3C(=O)C=C4[C@H]5C[C@@](C)(C(=O)O)CC[C@]5(C)CC[C@@]4(C)[C@]3(C)CC[C@@H]12 | BACTEC |  | H37Rv |  | MIC | ≥128 µg/mL
COc1ccc(CN=C2NC(=O)/C(=C/c3c(Cl)cccc3Cl)N2)cc1 |  |  | H37Rv | 12.5 µg/mL | inhibition | 0%
Clc1ccc(Nc2cc3nc4ccccc4n(-c4ccc(Cl)cc4)c-3cc2=NC2CCCCCC2)cc1 |  |  | H37Rv |  | MIC | 0.13 µg/mL
Cc1ccc(-n2c(SCC(=O)Nc3c(C)n(C)n(-c4ccccc4)c3=O)nnc2-c2ccco2)cc1 | resazurin |  | H37Rv |  | MIC | >6.25 µg/mL
C(=C\c1ccccc1)/CNc1ccccc1Cn1ccnc1 |  |  | 6431 |  | MIC | 4 µg/mL
CC(C)CN=c1cc2n(-c3ccc(Cl)cc3)c3ccccc3nc-2cc1Nc1ccc(Cl)cc1 |  |  | H37Rv |  | MIC | 0.5 µg/mL
CN1C(=O)Cc2cc(C(=O)CN3CCN(c4noc5ccccc45)CC3)ccc21 | visual reading / absorbance |  | H37Rv |  | MIC | 6.25 µg/mL
O=C1Nc2ccccc2C12C=C(c1ccccc1)Nc1ccc(F)cc1S2 |  |  |  | 12.5 µg/mL | inhibition | 98%
CCOC(=O)c1cc2cc3c4c(c2oc1=O)CCCN4CCC3 | BACTEC |  | H37Rv |  | MIC | ≥12.5 µg/mL
CN1CCN(Cc2ccc(NC/C=C/c3ccccc3)cc2)CC1 |  |  | B814 |  | MIC | 16 µg/mL
CCCCc1cnc(C(=O)/C=C/c2ccc(O)c(OC)c2)cn1 |  |  | H37Rv |  | EC50 | >12.5 µg/mL
CC1CCCCN1c1cncc(C(=O)NN)n1 |  |  | Ethionamide-resistant |  | MIC | 125 µg/mL
CC1=C(C)C(C#N)(C(=O)CBr)C(=N)O1 | BACTEC |  | H37Rv | 12.5 µg/mL | inhibition | 17%
CN1C(=O)Cc2cc(C(=O)CN3CCN(c4noc5cccc(Cl)c45)CC3)ccc21 | visual reading / absorbance |  | H37Rv |  | MIC | 12.5 µg/mL
C=CC1CN2CCC1CC2C(=O)c1ccnc2ccc(OC)cc12 | BACTEC |  | H37Rv | 128 µg/mL | inhibition | 78%
[N-]=[N+]=NCCCCN1C(=O)C2(OCCO2)c2ccccc21 |  |  | MC2 6230 |  | MIC99 | >347 µM
OCC1=C[C@@H](O)[C@@H]2C=CO[C@@H](O[C@@H]3O[C@H](CO)[C@@H](O)[C@H](O)[C@H]3O)[C@H]12 | BACTEC |  | H37Rv |  | MIC bound | >12.5 µg/mL
COc1cc2occc2c2oc(=O)ccc12 | resazurin |  | H37Ra |  | MIC90 | 400 µg/mL

8 of the rows above, restated:

structure,read by,changes,strain,tested at,measure,value
Cc1ccc(NCCNCC(C)(C)O)c2c(=O)c3ccc(Cl)cc3sc12,BACTEC,,H37Rv,,MIC bound,≤12.5 µg/mL
C(=C\c1ccccc1)/CNc1ccccc1Cn1ccnc1,,,6431,,MIC,4 µg/mL
CCCCC(CC)CN(CC(CC)CCCC)C[C@H]1O[C@H](O[C@H]2O[C@H](CN(CC(CC)CCCC)CC(CC)CCCC)[C@@H](O)[C@H](O)[C@H]2O)[C@H](O)[C@@H](O)[C@@H]1O,,,H37Ra,,MIC,128 µg/mL
CC1CCCCN1c1cncc(/C(N)=N/O)n1,,,H37Rv,,MIC,500 µg/mL
[N-]=[N+]=NCCN1C(=O)C2(OCCO2)c2ccccc21,,,MC2 6230,,MIC99,>385 µM
[N-]=[N+]=NCCCCN1C(=O)C2(OCCO2)c2ccccc21,,,MC2 6230,,MIC99,>347 µM
CN1CCN(Cc2ccccc2NC/C=C/c2ccccc2)CC1,,,B814,,MIC,32 µg/mL
COc1c(OC)c2occc2c2oc(=O)ccc12,resazurin,,H37Ra,,EC50,84.2 µg/mL